Measured values from several laboratories, pooled; numbers as filed in NIAID ChemDB.

Common to all: growth or infection tests; organism: HIV-2; endpoint: EC50

An empty or dashed field is not shown.

smiles	method	cells	strain or isolate	value
COc1ccc(CCNc2nc(NC(=S)Nc3ccc4ccccc4c3)nc(Oc3cc(=O)oc4ccccc34)n2)cc1OC	MTT	MT-4	ROD	>54.6 µg/mL
CC(C)=CCN1Cc2cccc3[nH]c(=O)n(c23)CC1C	cytopathic effect / MTT	MT-4	EHO	>870 µM
COc1cc(C)cc2c(-c3c(O)cc(O)c4c3C[C@H](C)N[C@H]4C)cc(-c3cc(-c4c(O)cc(O)c5c4C[C@H](C)N[C@H]5C)c4cc(C)cc(OC)c4c3O)c(O)c12	cytopathic effect / XTT	CEM + CEM-SS	CBL-20	2 µM
O=C(COc1nsnc1-c1cccc2ccccc12)Nc1ccccc1Cl	MTT	MT-4	ROD	>126 µM
Nc1nc(NC2CC2)c2ncn([C@H]3C=C[C@@H](CO)C3)c2n1	syncytia	CEM	ROD	4.2 µM
C[C@@H](Cn1cnc2c(N)nc(N)nc21)OCP(=O)(O)O	cytopathic effect	MT-4	LAV-2	7.9 µM
CCOC(=O)CNc1nc(NC(=O)Nc2ccccc2)nc(Oc2cc(=O)oc3ccccc23)n1	MTT	MT-4	ROD	>125 µg/mL
COc1ccc(CCN2C(=O)/C(=C\c3cc(OC)c(OC)c(OC)c3)N(CCc3ccc(OC)c(OC)c3)C2=S)cc1OC	cytopathic effect / MTT	MT-4	ROD	>13.7 µg/mL
Nc1ncnc2c1ncn2C[C@H](CF)OCP(=O)(O)O	cytopathic effect	MT-4	LAV-2	211 µM
COc1ccc(CCNc2nc(NC(=O)Nc3cccc(Cl)c3)nc(Oc3cc(=O)oc4ccccc34)n2)cc1OC	MTT	MT-4	ROD	>25.23 µg/mL
Cc1cc(C)c(CS(=O)c2cccc[n+]2[O-])c(C)c1	syncytia	CEM	ROD	1.5 µg/mL
Nc1nc(N)c2ncn(C[C@H](CO)OCP(=O)(O)O)c2n1	cytopathic effect	MT-4	LAV-2	21 µM
Cc1ccc(C)c(CS(=O)c2ccc(Cl)c[n+]2[O-])c1	cytopathic effect	CEM	ROD	2 µg/mL
COc1ccc(-c2csc3nc4nc(-c5ccccn5)c(-c5ccccn5)nc4c(=O)n23)cc1	cytopathic effect / MTT / absorbance	MT-4	ROD	>18.99 µM
Nc1nc2c(ncn2C[C@@H](CO)OCP(=O)(O)O)c(=O)[nH]1	cytopathic effect	MT-4	LAV-2	38 µM
COc1cc([C@@H]2Oc3cc([C@H]4Oc5cc(O)cc(O)c5C(=O)[C@@H]4O)ccc3O[C@H]2COP(=O)(O)OC[C@H]2O[C@H](OC)[C@H](O)[C@@H](O)[C@@H]2O)ccc1O	MTT	MT-4	ROD	>160 µM
COc1ccc(CCN2C(=O)/C(=C\c3ccccc3-c3ccco3)N(CCc3ccc(OC)c(OC)c3)C2=S)cc1OC	cytopathic effect / MTT	MT-4	ROD	>17.3 µg/mL
Cc1ccc(C(C)S(=O)(=O)c2c(C)ccc[n+]2[O-])c(C)c1	cytopathic effect	CEM	EHO	>100 µg/mL
COc1ccc(/C=C2\C(=O)N(CCc3ccc(OC)c(OC)c3)C(=S)N2CCc2ccc(OC)c(OC)c2)cc1	cytopathic effect / MTT	MT-4	ROD	>82.3 µg/mL
COc1ccc(C2ON=C3c4cc(OC)c(OC)cc4CC32)cc1	MTT	MT-4	ROD	>125 µM
Cc1ccc(C)c(CS(=O)(=O)c2cccc[n+]2[O-])c1	syncytia	CEM	ROD	10 µg/mL
Nc1nc2c(ncn2C[C@H](CO)OCP(=O)(O)O)c(=O)[nH]1	cytopathic effect	MT-4	LAV-2	>12.5 µM
Nc1nc(N)c(C2CC2)c(OCCOCP(=O)(O)O)n1	syncytia	CEM	ROD	≥300 µM
Fc1cccc(Cn2cc(COc3nsnc3-c3cccc4ccccc34)nn2)c1	MTT	MT-4	ROD	>67 µM
COc1cc([C@@H]2Oc3cc([C@H]4Oc5cc(O)cc(O)c5C(=O)[C@@H]4O)ccc3O[C@H]2COP(=O)(O)OC[C@H]2O[C@@H](O[C@H]3[C@H](O)[C@@H](O)[C@@H](OC)O[C@@H]3CO)[C@H](O)[C@@H](O)[C@H]2O)ccc1O	MTT	MT-4	ROD	>130 µM
C[N+]1(C)CC2c3cc4c5c6c3-c3c(cc7c8c3C63C[N+](C)(C)CC36C3=C5C(C4)Cc4ccc5cc(c-8c6c5c43)C7)C2C1	cytopathic effect	CEM	ROD	>25 µM
COc1cc([C@@H]2Oc3cc([C@H]4Oc5cc(O)cc(O)c5C(=O)[C@@H]4O)ccc3O[C@H]2COC[C@H]2O[C@H](OC)[C@@H](O)[C@@H](O)[C@@H]2O)ccc1O	MTT	MT-4	ROD	>160 µM
CCc1[nH]c(=S)n(Nc2cccc(C)c2)c1-c1ccccc1	cytopathic effect / MTT	MT-4	ROD	>53.55 µM
C[C@H](Cn1cnc2c(N)nc(N)nc21)OCP(=O)(O)O	cytopathic effect	MT-4	LAV-2	0.179 µM
COc1ccc(CCN2C(=O)/C(=C\c3ccc(F)cc3)N(CCc3ccc(OC)c(OC)c3)C2=S)cc1OC	cytopathic effect / MTT	MT-4	ROD	>18 µg/mL
COC(=O)C(OCC1OC(n2cc(C)c(=O)[nH]c2=O)CC1N=[N+]=[N-])P(=O)(O)OP(=O)(O)OP(=O)(O)O	cytopathic effect / syncytia	CEM	ROD	>100 µg/mL
Cc1cn([C@@H]2O[C@H](CO[Si](C)(C)C(C)(C)C)C3(OS(=O)(=O)C=C3N)[C@H]2O[Si](C)(C)C(C)(C)C)c(=O)nc1N	cytopathic effect	MT-4	-	>13.5 µM
CSC(=Nc1ccc(Br)cc1)Nn1c(C)nc2ccccc2c1=O	MTT	MT-4	ROD	2.66 µg/mL
CC(=O)Oc1ccccc1COP(=O)(OCc1ccccc1OC(C)=O)OC[C@@H]1C=C[C@H](n2cc(C)c(=O)[nH]c2=O)O1	-	CEM	-	0.22 µM
COc1cc2c(cc1OC)C1=NOC(c3ccccc3Cl)C1C2	MTT	MT-4	ROD	>11.54 µM
CCOC(=O)CNc1nc(Nc2cccc(C)c2)nc(Oc2cc(=O)oc3ccccc23)n1	MTT	MT-4	ROD	>65.28 µg/mL
COc1ccc(C(=O)CSc2nc3nc(C4=CCC=C=N4)c(-c4ccccn4)nc3c(=O)[nH]2)cc1	cytopathic effect / MTT / absorbance	MT-4	ROD	>36.1 µM
Cc1cn([C@@H]2OC(O[Si](C)(C)C(C)(C)C)C3(OS(=O)(=O)C=C3NCCC(=O)OCc3ccccc3)C2O[Si](C)(C)C(C)(C)C)c(=O)n(C)c1=O	cytopathic effect	MT-4	ROD	>250 µM
CCOC(=O)CNc1nc(Nc2ccc(C)cc2)nc(Oc2cc(=O)oc3ccccc23)n1	MTT	MT-4	ROD	>45.53 µg/mL
CN(C)c1ccn([C@@H]2O[C@H](CO[Si](C)(C)C(C)(C)C)C3(OS(=O)(=O)C=C3N)[C@H]2O[Si](C)(C)C(C)(C)C)c(=O)n1	cytopathic effect	MT-4	-	>166 µM
Cc1cc(C)cc(Nn2c(-c3ccccc3)c(C)[nH]c2=S)c1	cytopathic effect / MTT	MT-4	ROD	>194 µM
CSC(=Nc1cccc(Cl)c1)Nn1c(C)nc2ccccc2c1=O	MTT	MT-4	ROD	1.17 µg/mL
C[C@@H](Cn1cnc2c(=O)[nH]c(N)nc21)OCP(=O)(O)O	cytopathic effect	MT-4	LAV-2	26 µM
CCc1ccccc1N=C(Nn1c(C)nc2ccccc2c1=O)SC	MTT	MT-4	ROD	34.45 µg/mL
COc1cc2c(cc1OC)C1=NOC(c3cccs3)C1C2	MTT	MT-4	ROD	>31.02 µM
Nc1cc(OCCOCP(=O)(O)O)nc(N)n1	syncytia	CEM	ROD	1.6 µM
Cc1cc(C)c(CS(=O)c2cccc[n+]2[O-])c(C)c1	cytopathic effect	CEM	EHO	2.1 µg/mL
CC(C)(C)[Si](C)(C)OC[C@H]1O[C@@H](n2ccc(N)nc2=O)[C@H](O[Si](C)(C)C(C)(C)C)C12OS(=O)(=O)C=C2N	syncytia	CEM	-	>350 µM
Nc1cc2c(=O)c(C(=O)O)cn(C3CC3)c2cc1N1CCN(c2nc3ccccc3s2)CC1	cytopathic effect / MTT	MT-4	ROD	>0.076 µg/mL
Cc1cn(C2CC(N=[N+]=[N-])C(COC(C(=O)O)P(=O)(O)OP(=O)(O)OP(=O)(O)O)O2)c(=O)[nH]c1=O	cytopathic effect / syncytia	CEM	ROD	>100 µg/mL
Nc1[nH]c(=O)nc2nc(-c3ccccn3)c(-c3ccccn3)nc12	cytopathic effect / MTT / absorbance	MT-4	ROD	>75.34 µM
COC(=O)[C@H](C)NP(=O)(OC[C@@H]1C=C[C@H](n2cnc3c(NC4CC4)nc(N)nc32)C1)Oc1ccccc1	syncytia	CEM	ROD	0.07 µM
COc1cc2c(cc1OC)C1=NOC(c3cccc(N)c3)C1C2	MTT	MT-4	ROD	>13.83 µM
Cc1ccc(C)c(CS(=O)(=O)c2cccc[n+]2[O-])c1	cytopathic effect	CEM	EHO	14 µg/mL
COC(=O)c1ccc(NC(=O)COc2nsnc2-c2cccc3ccccc23)c(Br)c1	MTT	MT-4	ROD	>100 µM
CCOC(=O)CNc1nc(Nc2ccccc2OC)nc(Oc2cc(=O)oc3ccccc23)n1	MTT	MT-4	ROD	>72.3 µg/mL
COc1ccc(CCN2C(=O)/C(=C\c3cccc(Cl)c3)N(CCc3ccc(OC)c(OC)c3)C2=S)cc1OC	cytopathic effect / MTT	MT-4	ROD	>47.2 µg/mL
Nc1nc(N)c(-c2ccccc2)c(OCCOCP(=O)(O)O)n1	syncytia	CEM	ROD	≥300 µM
Cc1[nH]c(=S)n(Nc2ccccc2)c1C	cytopathic effect / MTT	MT-4	ROD	>181 µM
Cc1c(N)nc(N)nc1OCCOCP(=O)(O)O	syncytia	CEM	ROD	0.27 µM
OCC(O)C(O)C(O)c1nnc2n1N=C(c1ccccc1)CS2	-	MT-4	ROD	17.4 µg/mL
O=C(Nc1sc2c(c1C(=O)Nc1ccccn1)CCCCC2)c1ccc(O)c(O)c1	MTT / absorbance	MT-4	ROD	>30.69 µM
CSC(=Nc1ccc(Cl)cc1)Nn1c(C)nc2ccccc2c1=O	MTT	MT-4	ROD	1.93 µg/mL
COc1ccc(C)cc1CS(=O)(=O)c1cccc[n+]1[O-]	syncytia	CEM	EHO	44 µg/mL
CSC(=Nc1ccc(F)cc1)Nn1c(C)nc2ccccc2c1=O	MTT	MT-4	ROD	2.84 µg/mL
COc1cc2c(cc1OC)C1=NOC(c3c(Cl)cccc3Cl)C1C2	MTT	MT-4	ROD	>53.2 µM
Cc1cccc(Nn2cnc(C)c2-c2ccccc2)c1	cytopathic effect / MTT	MT-4	ROD	>27.04 µM
COC(=O)[C@H](C)NP(=O)(OC[C@H]1O[C@@H](n2cc(C)c(=O)[nH]c2=O)C[C@@H]1N=[N+]=[N-])Oc1ccccc1	-	CEM + CEM/0	ROD	0.07 µM
CC(C)=CCOc1cc(NC(=S)c2ccsc2C)ccc1Cl	cytopathic effect / XTT	CEM + CEM-SS	ROD	>20 µM
CC(=O)Oc1ccc(COP(=O)(OCc2ccc(OC(C)=O)cc2)OC[C@@H]2C=C[C@H](n3cc(C)c(=O)[nH]c3=O)O2)cc1	-	CEM + CEM TK-	-	0.13 µM
CNc1nc(=O)n([C@@H]2O[C@H](CO[Si](C)(C)C(C)(C)C)C3(OS(=O)(=O)C=C3N)[C@H]2O[Si](C)(C)C(C)(C)C)cc1C	syncytia	CEM	-	>33 µM
O=C(COc1nsnc1-c1cccc2ccccc12)Nc1ccc(Cl)cc1Cl	MTT	MT-4	ROD	>116 µM
Cc1ccnc2c1NC(=O)c1cccnc1N2C1CC1	cytopathic effect / MTT / absorbance	MT-4	ROD	>4 µM
COc1cc2c(cc1OC)C1=NOC(c3ccc(Cl)cc3)C1C2	MTT	MT-4	ROD	>1.36 µM
CC(C)=CCOc1cc(NC(=S)c2ccoc2C)ccc1Cl	cytopathic effect / XTT	CEM + CEM-SS	ROD	>20 µM
CC(C)(C)[Si](C)(C)OC[C@H]1O[C@@H](n2cc(I)c(=O)[nH]c2=O)[C@H](O[Si](C)(C)C(C)(C)C)C12OS(=O)(=O)C=C2N	cytopathic effect	MT-4	-	>5.7 µM
Cc1cccc(Nn2c(C)c(C)[nH]c2=S)c1	cytopathic effect / MTT	MT-4	ROD	>360 µM

A second listing of 6 rows from above:

smiles	method	cells	strain or isolate	value
Cc1cc(C)c(CS(=O)c2cccc[n+]2[O-])c(C)c1	syncytia	CEM	ROD	1.5 µg/mL
Cc1c(N)nc(N)nc1OCCOCP(=O)(O)O	syncytia	CEM	ROD	0.27 µM
Cc1[nH]c(=S)n(Nc2ccccc2)c1C	cytopathic effect / MTT	MT-4	ROD	>181 µM
CCc1[nH]c(=S)n(Nc2cccc(C)c2)c1-c1ccccc1	cytopathic effect / MTT	MT-4	ROD	>53.55 µM
CC(=O)Oc1ccccc1COP(=O)(OCc1ccccc1OC(C)=O)OC[C@@H]1C=C[C@H](n2cc(C)c(=O)[nH]c2=O)O1	-	CEM	-	0.22 µM
COc1ccc(C)cc1CS(=O)(=O)c1cccc[n+]1[O-]	syncytia	CEM	EHO	44 µg/mL

ECn: concentration that inhibits the pathogen or its effect by n%. Neighbouring rows are from separate reports.